Pooled drug test results. Numbers come from NIAID ChemDB, via PubChem.

Shared fields: growth or infection tests; agent: HIV-1; read by: cytopathic effect / MTT; measure: EC50

Blank or dashed fields: not listed here. Rows are shuffled and stem from different studies. ECn is the concentration giving n% inhibition of infection, replication or growth.

{"structure": "CC(C)CN(C[C@@H](O)[C@H](Cc1ccccc1)NC(=O)OCc1ccccc1)S(=O)(=O)c1ccc2sc(N)nc2c1", "cell line": "CEM", "strain or isolate": "IIIB", "value": "0.102 µM"}
{"structure": "CN=C1CN=C(c2ccc[nH]2)c2cc(Cl)ccc2N1", "cell line": "MOLT-4", "strain or isolate": "IIIB", "value": "0.053 µg/mL"}
{"structure": "CC(C)CN(C[C@@H](O)[C@H](Cc1ccccc1)NC(=O)O[C@H]1CCOC1)S(=O)(=O)c1ccc(N)cc1", "cell line": "MT-4", "strain or isolate": "NL4-3", "value": "0.0286 µM"}
{"structure": "Nc1nc(NC2CC2)c2ncn([C@H]3C=C[C@@H](CO)C3)c2n1", "cell line": "MT-4", "strain or isolate": "IIIB", "value": "2.9 µM"}
{"structure": "Nc1ncnc2c1ncn2CCOCP(=O)(O)O", "cell line": "MT-4", "value": "5.3 µM"}
{"structure": "CC(C)CN(C[C@@H](O)[C@H](Cc1ccccc1)NC(=O)OCc1cncs1)S(=O)(=O)c1ccc2nc(N)sc2c1", "cell line": "CEM", "strain or isolate": "IIIB", "value": "0.003 µM"}
{"structure": "Nc1nc(=O)n([C@@H]2C=C[C@H](CO)O2)cc1F", "cell line": "MT-2", "strain or isolate": "IIIB", "value": "0.18 µM"}
{"structure": "CCOC(=O)c1cc(O)c(O)c(O)c1", "cell line": "MT-4", "strain or isolate": "IIIB", "value": ">12.5 µg/mL"}
{"structure": "Nc1ncnc2c1nnn2CCOCP(=O)(O)O", "cell line": "MT-4", "value": "94 µM"}
{"structure": "Cc1cn([C@H]2C[C@H](N=[N+]=[N-])[C@@H](CO)O2)c(=O)[nH]c1=O", "cell line": "MT-4", "strain or isolate": "NL4-3", "value": "0.011 µM"}
{"structure": "Cc1c(N)cccc1C(=O)N[C@@H](Cc1ccccc1)[C@H](O)CN(CC(C)C)S(=O)(=O)c1ccc2ncsc2c1", "cell line": "CEM", "strain or isolate": "IIIB", "value": "0.021 µM"}
{"structure": "CCOP(=O)(O)COCCn1nnc2c(=O)[nH]c(N)nc21", "cell line": "MT-4", "value": ">315 µM"}
{"structure": "O=C1O[C@H]2[C@@H]3OC(=O)c4cc(O)c(O)c(O)c4-c4c(cc(O)c(O)c4O)C(=O)OC[C@H]2O[C@@H](OC(=O)c2cc(O)c(O)c(O)c2)[C@@H]3OC(=O)c2cc(O)c(O)c3c2[C@@H]2C1=CC(=O)[C@](O)(O3)C2(O)O", "cell line": "MT-4", "strain or isolate": "IIIB", "value": ">25 µg/mL"}
{"structure": "CC(C)Cc1c(Sc2cccc3ccccc23)n(COCc2ccccc2)c(=O)[nH]c1=O", "cell line": "MT-4", "strain or isolate": "IIIB", "value": "2.96 µM"}
{"structure": "Cc1cn([C@H]2C[C@H](N=[N+]=[N-])[C@@H](CO)O2)c(=O)[nH]c1=O", "cell line": "MT-4", "value": "0.0022 µg/mL"}
{"structure": "Cc1c(Sc2cccc3ccccc23)n(COCc2ccccc2)c(=O)[nH]c1=O", "cell line": "MT-4", "strain or isolate": "IIIB", "value": "0.18 µM"}
{"structure": "CCOCn1c2c(c(=O)[nH]c1=O)Nc1ccc(C)cc1S2", "cell line": "MT-4", "value": "1.4 µg/mL"}
{"structure": "CC(C)(C)NC(=O)[C@@H]1CN(Cc2cccnc2)CCN1C[C@@H](O)C[C@@H](Cc1ccccc1)C(=O)N[C@H]1c2ccccc2C[C@H]1OC(=O)CCCCO[C@@H]1[C@@H](O)[C@@H](O)O[C@H](CO)[C@H]1O", "cell line": "CEM + CEM-SS", "strain or isolate": "LAI", "value": "0.048 µM"}
{"structure": "C1CNCCNCC(C2CNCCNCCCNCCNC2)CNCCNC1", "cell line": "MT-4", "strain or isolate": "IIIB", "value": "0.33 µg/mL"}
{"structure": "CC#C[C@@]1(CO)C=C[C@H](n2cc(C)c(=O)[nH]c2=O)O1", "cell line": "MT-2", "strain or isolate": "IIIB", "value": "4 µM"}
{"structure": "C1CNCCNCCCNCCNC1", "cell line": "MT-4", "strain or isolate": "IIIB", "value": ">500 µg/mL"}
{"structure": "CC(C)c1c(Sc2cccc3ccccc23)n(COCc2ccccc2)c(=O)[nH]c1=O", "cell line": "MT-4", "strain or isolate": "IIIB", "value": "0.063 µM"}
{"structure": "O=C(O[C@@H]1Cc2c(O)cc(O)cc2O[C@@H]1c1ccc(O)c(O)c1)c1cc(O)c(O)c(O)c1", "cell line": "MT-4", "strain or isolate": "IIIB", "value": ">50 µg/mL"}
{"structure": "C[C@H](Cn1cnc2c(N)ncnc21)OCP(=O)(O)O", "cell line": "MT-4", "strain or isolate": "NL4-3", "value": "1.7 µM"}
{"structure": "Cc1ccnc2c1NC(=O)c1cccnc1N2C1CC1", "cell line": "MT-4", "changes": "RT-Y188L", "value": ">100 µM"}
{"structure": "Cc1cn([C@H]2C[C@H](N=[N+]=[N-])[C@@H](CO)O2)c(=O)[nH]c1=O", "cell line": "CEM + CEM-SS", "strain or isolate": "C", "value": "0.007 µM"}
{"structure": "O=C(OC1OC2COC(=O)c3cc(O)c(O)c(O)c3-c3c(cc(O)c(O)c3O)C(=O)OC2C(OC(=O)c2cc(O)c(O)c(O)c2)C1OC(=O)c1cc(O)c(O)c(O)c1)c1cc(O)c(O)c(Oc2c(C(=O)O)cc(O)c(O)c2O)c1", "cell line": "MT-4", "strain or isolate": "IIIB", "value": ">50 µg/mL"}
{"structure": "O=c1[nH]c(=O)n([C@@H]2O[C@H](CO)[C@@H](O)[C@H]2O)c2c1Nc1ccccc1S2", "cell line": "MT-4", "value": ">53 µg/mL"}
{"structure": "Cc1c(O)cccc1C(=O)N[C@@H](Cc1ccccc1)[C@H](O)CN(CC(C)C)S(=O)(=O)c1ccc2nc(N)sc2c1", "cell line": "CEM", "strain or isolate": "IIIB", "value": "0.014 µM"}
{"structure": "Nc1nc(NC2CC2)c2ncn([C@H]3C=C[C@@H](CO)C3)c2n1", "cell line": "MT-4", "strain or isolate": "NL4-3", "value": "1.41 µM"}
{"structure": "O=C(O)C[C@@H]1C(=O)O[C@H]2[C@@H]3OC(=O)c4cc(O)c(O)c(O)c4-c4c(cc(O)c(O)c4O)C(=O)OC[C@H]2O[C@@H](OC(=O)c2cc(O)c(O)c(O)c2)[C@@H]3OC(=O)c2cc(O)c(O)c3c2[C@H]1[C@H](O)C(=O)O3", "cell line": "MT-4", "strain or isolate": "IIIB", "value": ">25 µg/mL"}
{"structure": "Cc1cccc(C)c1OCC(=O)N[C@@H](Cc1ccccc1)[C@@H](O)C[C@H](Cc1ccccc1)NC(=O)[C@H](C(C)C)N1CCCNC1=O", "cell line": "MT-4", "strain or isolate": "NL4-3", "value": "0.0093 µM"}
{"structure": "Cc1c(O)cccc1C(=O)N[C@@H](CSc1ccccc1)[C@H](O)CN1C[C@H]2CCCC[C@H]2C[C@H]1C(=O)NC(C)(C)C", "cell line": "MT-4", "strain or isolate": "NL4-3", "changes": "PR-M46I V82T I84V 10R 63P", "value": "0.057 µM"}
{"structure": "CC(C)CN(C[C@@H](O)[C@H](Cc1ccccc1)NC(=O)OCc1cncs1)S(=O)(=O)c1ccc2ncsc2c1", "cell line": "CEM", "strain or isolate": "IIIB", "value": "0.009 µM"}
{"structure": "Cc1c(O)cccc1C(=O)N[C@@H](CSc1ccccc1)[C@H](O)CN1C[C@H]2CCCC[C@H]2C[C@H]1C(=O)NC(C)(C)C", "cell line": "CEM + CEM-SS", "strain or isolate": "LAI", "value": "0.002 µM"}
{"structure": "Cc1ccnc2c1NC(=O)c1cccnc1N2C1CC1", "cell line": "MT-4", "changes": "RT-K100I", "value": ">10 µM"}
{"structure": "CCc1c(Sc2ccc3ccccc3c2)n(COC)c(=O)[nH]c1=O", "cell line": "MT-4", "strain or isolate": "IIIB", "value": "22.02 µM"}
{"structure": "CC(C)(C)NC(=O)[C@@H]1CC2CCCCC2CN1C[C@@H](OC(=O)CCC(=O)O[C@H]1[C@@H](C2COC(C)(C)O2)OC2OC(C)(C)O[C@H]21)[C@H](Cc1ccccc1)NC(=O)[C@H](CC(N)=O)NC(=O)c1ccc2ccccc2n1", "cell line": "MT-4", "strain or isolate": "IIIB", "value": "0.15 µM"}
{"structure": "Nc1nc2c(nnn2CCOCP(=O)(O)O)c(=O)[nH]1", "cell line": "MT-4", "value": "15 µM"}
{"structure": "COC(=O)N[C@@H](Cc1c[nH]c2ccccc12)C(=O)NCCCC[C@@H](CO)N(CC(C)C)S(=O)(=O)c1ccc(N)cc1", "cell line": "MT-4", "strain or isolate": "NL4-3 WT", "value": "0.136 µM"}
{"structure": "CC(C)(C)NC(=O)[C@@H]1CN(Cc2cccnc2)CCN1C[C@H](C[C@@H](Cc1ccccc1)C(=O)N[C@H]1c2ccccc2C[C@H]1O)OC(=O)CCC(=O)O[C@H]1[C@@H](C2COC(C)(C)O2)OC2OC(C)(C)O[C@H]21", "cell line": "CEM + CEM-SS", "strain or isolate": "LAI", "value": "0.12 µM"}
{"structure": "Cc1ccccc1C(=O)N[C@@H](Cc1ccccc1)[C@H](O)CN(CC(C)C)S(=O)(=O)c1ccc2ncsc2c1", "cell line": "CEM", "strain or isolate": "IIIB", "value": "0.013 µM"}
{"structure": "Nc1ccn([C@H]2CO[C@@H](CO)S2)c(=O)n1", "cell line": "MT-4", "strain or isolate": "IIIB", "value": "26 µM"}
{"structure": "CC(C)c1c(Sc2cccc3ccccc23)n(COCCc2ccccc2)c(=O)[nH]c1=O", "cell line": "MT-4", "strain or isolate": "IIIB", "value": "2.77 µM"}

A second listing of 5 rows from above:

structure,cell line,strain or isolate,changes,value
CCOC(=O)c1cc(O)c(O)c(O)c1,MT-4,IIIB,,>12.5 µg/mL
C[C@H](Cn1cnc2c(N)ncnc21)OCP(=O)(O)O,MT-4,NL4-3,,1.7 µM
Nc1nc(NC2CC2)c2ncn([C@H]3C=C[C@@H](CO)C3)c2n1,MT-4,NL4-3,,1.41 µM
CC(C)Cc1c(Sc2cccc3ccccc23)n(COCc2ccccc2)c(=O)[nH]c1=O,MT-4,IIIB,,2.96 µM
Cc1ccccc1C(=O)N[C@@H](Cc1ccccc1)[C@H](O)CN(CC(C)C)S(=O)(=O)c1ccc2ncsc2c1,CEM,IIIB,,0.013 µM